Source: patent EP1367044B1, “Calixarene-derivatives having anti-viral activity” (Aids Care Pharma Limited, priority 2002, dated 2003)

Key:
gp120/CD4 binding = gp120/CD4 binding (UniProt P01730+P03375); assay: Test 1: inhibition of gp120/CD4 binding, recombinant proteins in an immunoassay format; conditions: for activity compared with AC-1 (1151c): comparison in words, results from both tests were comparable; for EC50: read-out: Test 1 EC50, concentration which reduces gp120 interaction with CD4 by 50%
wild-type HIV-1(111a) = conditions: CEM cells, 4 days incubation at 37°C, syncytium formation
[1] = tested form: K salt (tetrapotassium)
[2] = tested form: K salt (octapotassium)

| Compound | activity compared with AC-1 (1151c) (gp120/CD4 binding; [1]) | EC50 (gp120/CD4 binding; [1]) [µM] | Test 2 EC50 (wild-type HIV-1(111a); [1]) [µg/mL] | activity compared with AC-1 (1151c) (gp120/CD4 binding; [2]) | EC50 (gp120/CD4 binding; [2]) [µM] | Test 2 EC50 (wild-type HIV-1(111a); [2]) [µg/mL] |
| --- | --- | --- | --- | --- | --- | --- |
| O=C(O)COc1c(O)c2cc(c1O)C(c1ccc(F)cc1)c1cc(c(O)c(OCC(=O)O)c1O)C(c1ccc(F)cc1)c1cc(c(O)c(OCC(=O)O)c1O)C(c1ccc(F)cc1)c1cc(c(O)c(OCC(=O)O)c1O)C2c1ccc(F)cc1 (stereo not drawn) | slightly less active | 5 | 10 | – | – | – |
| O=C(O)COc1cc(OCC(=O)O)c2cc1C(c1ccc(F)cc1)c1cc(c(OCC(=O)O)cc1OCC(=O)O)C(c1ccc(F)cc1)c1cc(c(OCC(=O)O)cc1OCC(=O)O)C(c1ccc(F)cc1)c1cc(c(OCC(=O)O)cc1OCC(=O)O)C2c1ccc(F)cc1 (stereo not drawn) | – | – | – | much less active | 75 | ≥20 |

Where two headings read alike, the source gives them in different places.
